Results: ChEMBL document CHEMBL1138690, “Carbonic anhydrase inhibitors. Inhibition of the newly isolated murine isozyme XIII with anions” (Bioorg Med Chem Lett, 2004)

Sequences of proteins named here, by UniProt entry; tags and fusion partners are left off. Residues count along the entry.
UniProt Q9Y2D0, 34-317 limits assumed: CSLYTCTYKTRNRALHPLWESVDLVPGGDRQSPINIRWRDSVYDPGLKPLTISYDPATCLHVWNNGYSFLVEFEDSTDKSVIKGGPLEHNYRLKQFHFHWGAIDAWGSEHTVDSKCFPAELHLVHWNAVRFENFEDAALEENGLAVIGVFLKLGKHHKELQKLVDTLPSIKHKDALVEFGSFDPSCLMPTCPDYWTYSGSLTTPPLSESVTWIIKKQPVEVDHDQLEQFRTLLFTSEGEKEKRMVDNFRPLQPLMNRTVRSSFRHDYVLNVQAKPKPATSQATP
UniProt P35218, 39-305 limits assumed: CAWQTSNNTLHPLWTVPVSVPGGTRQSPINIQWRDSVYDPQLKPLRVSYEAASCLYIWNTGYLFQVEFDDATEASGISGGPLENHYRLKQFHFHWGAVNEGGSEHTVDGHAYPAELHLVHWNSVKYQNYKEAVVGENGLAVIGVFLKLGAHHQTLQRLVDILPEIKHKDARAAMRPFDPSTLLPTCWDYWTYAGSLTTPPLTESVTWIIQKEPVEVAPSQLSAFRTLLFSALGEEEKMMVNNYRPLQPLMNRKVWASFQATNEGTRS

Molecular target: Carbonic anhydrase V (Homo sapiens, UniProt Q9Y2D0+P35218)

O[As](O)Oc1ccccc1 showed a Ki of 7.43 nM.
